Data reported in patent publication US9625458B2, “Biosensor” (priority 2002, dated 2017).
Changes are numbered by the printed parent chain. Names may count otherwise.

B1: ribose BP L265C Acrylodan (conjugate, UniProt P02925 26-296, looked up, variant L265C)
Ribose import binding protein …: KDTIALVVSTLNNPFFVSLKDGAQKEADKLGYNLVVLDSQNNPAKELANVQDLTVRGTKILLINPTDSDAVGNAVKMANQANIPVITLDRQATKGEVVSHIASDNVLGGKIAGDYIAKKAGEGAKVIELQGIAGTSAARERGEGFQQAVAAHKFNVLASQPADFDRIKGLNVMQNLLTAHPDVQAVFAQNDEMALGALRALQTAGKSDVMVVGFDGTPDGEKAVNDGKLAATIAQLPDQIGAKGVETADKVLKGEKVQAKYPVDCKLVVKQ
modifications: acrylodan conjugate
B2: dipeptide BP D450C Acrylodan (conjugate, UniProt P23847 29-535, looked up, variant D450C)
Dipeptide-binding protein: KTLVYCSEGSPEGFNPQLFTSGTTYDASSVPLYNRLVEFKIGTTEVIPGLAEKWEVSEDGKTYTFHLRKGVKWHDNKEFKPTRELNADDVVFSFDRQKNAQNPYHKVSGGSYEYFEGMGLPELISEVKKVDDNTVQFVLTRPEAPFLADLAMDFASILSKEYADAMMKAGTPEKLDLNPIGTGPFQLQQYQKDSRIRYKAFDGYWGTKPQIDTLVFSITPDASVRYAKLQKNECQVMPYPNPADIARMKQDKSINLMEMPGLNVGYLSYNVQKKPLDDVKVRQALTYAVNKDAIIKAVYQGAGVSAKNLIPPTMWGYNDDVQDYTYDPEKAKALLKEAGLEKGFSIDLWAMPVQRPYNPNARRMAEMIQADWAKVGVQAKIVTYEWGEYLKRAKDGEHQTVMMGWTGDNGDPDNFFATLFSCAASEQGSNYSKWCYKPFEDLIQPARATCDHNKRVELYKQAQVVMHDQAPALIIAHSTVFEPVRKEVKGYVVDPLGKHHFENVSIE
modifications: acrylodan conjugate
B3: ribose BP L265C NBD (conjugate, UniProt P02925 26-296, looked up, variant L265C)
Ribose import binding protein …: B1 Ribose import binding protein …
modifications: NBD dye conjugate
B4: ribose BP T135C JPW4042 (conjugate, UniProt P02925 26-296, looked up, variant T135C)
Ribose import binding protein …: B1 Ribose import binding protein … with T135C, C265L
modifications: JPW4042 dye conjugate
B5: ribose BP T135C JPW4045 (conjugate, UniProt P02925 26-296, looked up, variant T135C)
Ribose import binding protein …: B1 Ribose import binding protein … with T135C, C265L
modifications: JPW4045 dye conjugate
B6: ribose BP T135C Acrylodan (conjugate, UniProt P02925 26-296, looked up, variant T135C)
Ribose import binding protein …: B1 Ribose import binding protein … with T135C, C265L
modifications: acrylodan conjugate
B7: ribose BP T135C Fluorescein (conjugate, UniProt P02925 26-296, looked up, variant T135C)
Ribose import binding protein …: B1 Ribose import binding protein … with T135C, C265L
modifications: fluorescein conjugate
B8: ribose BP T135C NBD (conjugate, UniProt P02925 26-296, looked up, variant T135C)
Ribose import binding protein …: B1 Ribose import binding protein … with T135C, C265L
modifications: NBD dye conjugate
B9: dipeptide BP D450C Fluorescein (conjugate, UniProt P23847 29-535, looked up, variant D450C)
Dipeptide-binding protein: B2 Dipeptide-binding protein
modifications: fluorescein label
B10: dipeptide BP D450C NBD (conjugate, UniProt P23847 29-535, looked up, variant D450C)
Dipeptide-binding protein: B2 Dipeptide-binding protein
modifications: NBD dye conjugate
B11: dipeptide BP K394C JPW4039 (conjugate, UniProt P23847 29-535, looked up, variant K394C)
Dipeptide-binding protein: B2 Dipeptide-binding protein with K394C, C450D
modifications: JPW4039 dye conjugate
B12: dipeptide BP K394C JPW4042 (conjugate, UniProt P23847 29-535, looked up, variant K394C)
Dipeptide-binding protein: B2 Dipeptide-binding protein with K394C, C450D
modifications: JPW4042 dye conjugate
B13: dipeptide BP K394C JPW4045 (conjugate, UniProt P23847 29-535, looked up, variant K394C)
Dipeptide-binding protein: B2 Dipeptide-binding protein with K394C, C450D
modifications: JPW4045 dye conjugate
B14: dipeptide BP K394C Acrylodan (conjugate, UniProt P23847 29-535, looked up, variant K394C)
Dipeptide-binding protein: B2 Dipeptide-binding protein with K394C, C450D
modifications: acrylodan conjugate
B15: dipeptide BP K394C Fluorescein (conjugate)
chain: MKTLVYCSEGSPEGFNPQLFTSGTTYDASSVPLYNRLVEFKIGTTEVIPGLAEKWEVSEDGKTYTFHLRKGVKWHDNKEFKPTRELNADDVVFSFDRQKNAQNPYHKVSGGSYEYFEGMGLPELISEVKKVDDNTVQFVLTRPEAPFLADLAMDFASILSKEYADAMMKAGTPEKLDLNPIGTGPFQLQQYQKDSRIRYKAFDGYWGTKPQIDTLVFSITPDASVRYAKLQKNECQVMPYPNPADIARMKQDKSINLMEMPGLNVGYLSYNVQKKPLDDVKVRQALTYAVNKDAIIKAVYQGAGVSAKNLIPPTMWGYNDDVQDYTYDPEKAKALLKEAGLEKGFSIDLWAMPVQRPYNPNARRMAEMIQADWAKVGVQAKIVTYEWGEYLKRACDGEHQTVMMGWTGDNGDPDNFFATLFSCAASEQGSNYSKWCYKPFEDLIQPARATDDHNKRVELYKQAQVVMHDQAPALIIAHSTVFEPVRKEVKGYVVDPLGKHHFENVSIE
modifications: left off: small tags and cut ends
B16: dipeptide BP K394C NBD (conjugate, UniProt P23847 29-535, looked up, variant K394C)
Dipeptide-binding protein: B2 Dipeptide-binding protein with K394C, C450D
modifications: NBD conjugate
B17: dipeptide BP R141C JPW4039 (conjugate, UniProt P23847 29-535, looked up, variant R141C)
Dipeptide-binding protein: B2 Dipeptide-binding protein with R141C, C450D
modifications: JPW4039 dye conjugate
B18: dipeptide BP R141C JPW4042 (conjugate, UniProt P23847 29-535, looked up, variant R141C)
Dipeptide-binding protein: B2 Dipeptide-binding protein with R141C, C450D
modifications: JPW4042 dye label
B19: dipeptide BP R141C JPW4045 (conjugate, UniProt P23847 29-535, looked up, variant R141C)
Dipeptide-binding protein: B2 Dipeptide-binding protein with R141C, C450D
modifications: JPW4045 label
B20: dipeptide BP R141C Acrylodan (conjugate, UniProt P23847 29-535, looked up, variant R141C)
Dipeptide-binding protein: B2 Dipeptide-binding protein with R141C, C450D
modifications: acrylodan label
B21: dipeptide BP R141C Fluorescein (conjugate, UniProt P23847 29-535, looked up, variant R141C)
Dipeptide-binding protein: B2 Dipeptide-binding protein with R141C, C450D
modifications: fluorescein conjugate

Experiment: Fluorescence emission spectra without and with saturating ligand (wavelength shift, ΔIstd, ΔRmax)
Conditions: for λmax,apo (nm): absence of ligand; for ΔIstd: standard intensity change; for ΔIstd / ΔRmax: unbound vs ligand-saturated; for ΔRmax: standard ratiometric change
Summary of the method: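 Emission spectra of bPBP–fluorophore conjugates (50–1000 nM protein, 25 °C, stirred) recorded without and with saturating ligand, using fluorophore-specific excitation. Wavelength shift, ΔIstd (intensity change at the mid-point wavelength) and ΔRmax (maximal ratiometric change over enumerated band pairs, 2 nm steps, 10 nm width) derived.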

[1] = wavelength of emission maximum, saturating ligand
[2] = emission maximum, saturating ligand (ligand column)

Molecule | λmax,apo (nm) (wavelength of emission maximum) | λmax,sat (nm) [1] | λmax,apo (nm) (emission maximum) | λmax,sat (nm) [2] | ΔIstd | ΔRmax
B1 | 500 | 501 | – | – | – | –
B2 | – | – | 508 | 521 | 0.06 | 1.64
B3 | 545 | 540 | – | – | – | –
B4 | 680 | 674 | – | – | – | –
B5 | 647 | 664 | – | – | – | –
B6 | 518 | 498 | – | – | – | –
B7 | 526 | 523 | – | – | – | –
B8 | 542 | 544 | – | – | – | –
B9 | – | – | 520 | 520 | 0.10 | 0.04
B10 | – | – | 545 | 544 | 0.02 | 0.80
B11 | – | – | 592 | 598 | 0.37 | 1.34
B12 | – | – | 638 | 644 | 0.06 | 0.99
B13 | – | – | 631 | 640 | 0.01 | 1.07
B14 | – | – | 500 | 500 | 0.23 | 0.90
B15 | – | – | 522 | 522 | 0.30 | 0.21
B16 | – | – | 542 | 541 | 0.06 | 0.68
B17 | – | – | 592 | 596 | 0.06 | 0.69
B18 | – | – | 629 | 631 | 0.06 | 0.87
B19 | – | – | 610 | 617 | 0.15 | 1.18
B20 | – | – | 502 | 501 | 0.06 | 0.25
B21 | – | – | 522 | 522 | 0.12 | 0.66
